Anti-infective test results gathered from many reports (values: NIAID ChemDB through PubChem).

Shared fields: whole-cell or culture tests; species: Candida albicans

MIC50, MIC90 and the like: level of inhibition, or share of isolates inhibited. a–b is a range or a potency band. Neighbouring rows are from separate reports. An empty or dashed field is not shown.

smiles,strain or isolate,measure,method,value
O[C@](Cn1cncn1)(Cn1cnc(/C=C/c2ccc(OCC(F)(F)C(F)F)cc2)n1)c1ccc(F)cc1F,Isolate 04-31,MIC,,0.25 µg/mL
O=c1[nH]nc(Cc2ccccc2)n1CCO,ATCC16231,MIC,,>250 µg/mL
CC(C)(C)C(=O)OC1CCN(CC(O)(Cn2cncn2)c2ccc(F)cc2F)CC1,Y0109,MIC80,broth dilution,0.148 µM
Clc1cc(Br)ccc1C=Nc1cccc(Cn2ccnc2)c1,27 strains,Mean MIC,,131 µg/mL
CC(C)(C)c1ccc(-c2nc3cc([N+](=O)[O-])ccc3o2)cc1,,MIC,,12.5 µg/mL
COc1ccc(C(Cc2ccc(Cl)cc2)n2cnnc2)cc1,28 strains,MIC50,,128 µg/mL
CCCCCCCCCCCCCC[C@@H](N)C(=O)N[C@H](C(=O)O)C1O[C@@H](n2ccc(=O)[nH]c2=O)[C@H](O)[C@@H]1O,124 NIK (nikkomycin-R),MIC,,>320 µg/mL
CN(C)CCSC(=S)NCc1c(Cl)cccc1Cl,,MIC,,40 µg/mL
Cc1ccc(-c2n[nH]c(=O)n2-n2c(C)ccc2C)cc1,ATCC16231,MIC,,>250 µg/mL
CC(C)(C)c1ccc(C(=O)Nc2cc([N+](=O)[O-])ccc2O)cc1,,MIC,,12.5 µg/mL
O=C(Nc1cccc(Cn2ccnc2)c1)c1ccc(Cl)cc1[N+](=O)[O-],27 strains,Mean MIC,,117 µg/mL
S=c1nc2c(n[nH]1)Cc1ccccc1N2,ATCC 2091,MIC,,50 µg/mL
O=[N+]([O-])c1ccc(Cc2nc3cc([N+](=O)[O-])ccc3o2)cc1,,MIC,,12.5 µg/mL
CCC(c1ccc(Cl)cc1)C(c1ccc(OC)cc1)n1cncn1,28 strains,MIC90,,128 µg/mL
O=C(Nc1cccc(Cn2ccnc2)c1)c1ccc(Br)cc1,27 strains,Mean MIC,,100 µg/mL
Cc1ccc(C)n1-n1c(Cc2ccc(Cl)cc2)n[nH]c1=O,ATCC16231,MIC,,>250 µg/mL
O=C(/C=C/c1cccc(Br)c1)OC1CCN(CC(O)(Cn2cncn2)c2ccc(F)cc2F)CC1,Y0109,MIC80,broth dilution,0.114 µM
CN(C)CCSC(=S)NCc1ccc(Br)cc1,,MIC,,15 µg/mL
O=C(Cc1nnc2nnc3c(n12)Nc1ccccc1C3)NNC(=S)Nc1ccccc1,ATCC 2091,MIC,,200 µg/mL
O=C(N/N=C/c1coc2ccc(O)cc2c1=O)c1cc(O)c(O)c(O)c1,PN-10,MIC,,250–400 µg/mL
Cc1ccc(-n2c(C)n[nH]c2=O)cc1,ATCC16231,MIC,,>250 µg/mL
CCC(c1ccc(OC)cc1)C(c1ccc(OC)cc1)n1cncn1,28 strains,MIC50,,>256 µg/mL
CC(=O)N(C(C)=O)n1c(Cc2ccc(Cl)cc2)n[nH]c1=O,ATCC16231,MIC,,>250 µg/mL
Nc1nnc2c(cnc3ccccc32)n1,VM-81,MIC,,40 µg/mL
CCOC1Oc2ccc(Cl)cc2C(=O)/C1=C\Nc1ccc(C(=O)O)c(O)c1,PN-10,MIC,,50 µg/mL
CN(C)CCSC(=S)NCc1ccc(Cl)c(Cl)c1,,MIC,,10 µg/mL
CCC(c1ccc(OC)cc1)C(O)c1ccc(OC)cc1,28 strains,MIC50,,256 µg/mL
CC(=O)OC1CCN(CC(O)(Cn2cncn2)c2ccc(F)cc2F)CC1,Y0109,MIC80,broth dilution,0.164 µM
O=C(Nc1cc([N+](=O)[O-])ccc1O)c1ccc([N+](=O)[O-])cc1,,MIC,,50 µg/mL
O=C(Nc1ccc(Cn2ccnc2)cc1)c1cc([N+](=O)[O-])cc([N+](=O)[O-])c1,27 strains,Mean MIC,,126 µg/mL
Oc1ccc2c(c1)CCc1ccc(O)c(c1)Oc1ccc(cc1)CCc1cccc(O)c1O2,YEM30,MIC80,broth dilution,16 µg/mL
CC1(C)CC(=O)c2cc(/C=C/C(=O)c3ccc(Cl)cc3)[nH]c2C1,ATCC 2091,MIC,,200 µg/mL
C=CCc1ccc(O)c(OC)c1,3081,MIC90,turbidity,495 µg/mL
O=C1CCC(=O)N1n1c(Cc2ccc(Cl)cc2)n[nH]c1=O,ATCC16231,MIC,,>250 µg/mL
COc1ccc2c(c1)CCN1C(NCCCCCC=C(C)C)NCCC21,NFI2103,MIC,,64 µg/mL
CN(C)CCSC(=S)NCc1ccc(Cl)cc1,,MIC,,20 µg/mL
COc1ccc(C2=NN(C(N)=S)C(c3cc4c([nH]3)CC(C)(C)CC4=O)C2)cc1,ATCC 2091,MIC,,200 µg/mL
CN(C)CCSC(=S)NCc1cccc(C(F)(F)F)c1,,MIC,,100 µg/mL
O=C(Nc1ccc(Cn2ccnc2)cc1)c1ccc(Cl)cc1,27 strains,Mean MIC,,200 µg/mL
N=C(N)c1ccc2nc(-c3ccc(-c4nc5ccc(C(=N)N)cc5[nH]4)[nH]3)[nH]c2c1,Isolate 2281,MFC,,0.78 µg/mL
Clc1ccc(CNc2cccc(Cn3ccnc3)c2)c(Cl)c1,27 strains,Mean MIC,,157 µg/mL
O=C(/C=C/c1ccc([N+](=O)[O-])cc1)OC1CCN(CC(O)(Cn2cncn2)c2ccc(F)cc2F)CC1,Y0109,MIC80,broth dilution,0.03 µM
CCNC1Oc2cc(Cl)ccc2C(=O)/C1=C/Nc1ccc2[nH]c(=S)sc2c1,PN-10,MIC,,50–250 µg/mL
CCCCCCCCNC1NCCC2c3ccc(OC)cc3CCN12,NFI2103,MIC80,,32 µg/mL
O=S(=O)(NC(=S)Nc1ccccc1)c1ccc(N2N=C(c3ccc(Cl)cc3)C(Br)C2c2ccccc2)cc1,ATCC 2091,MIC,,12.5 µg/mL
C=C(CCCCCNC1NCCC2c3ccc(OC)cc3CCN12)C(C)C,NFI2103,MIC80,,8 µg/mL
Clc1nnc2c(cnc3ccccc32)n1,VM-81,MIC,,≤10 µg/mL
COc1ccc(C(O)Cc2ccc(Cl)cc2)cc1,28 strains,MIC50,,64 µg/mL
O=C1c2ccccc2C(=O)N1n1c(Cc2ccccc2)n[nH]c1=O,ATCC16231,MIC,,>250 µg/mL
CCCCCCCCC(=O)OC1CCN(CC(O)(Cn2cncn2)c2ccc(F)cc2F)CC1,Y0109,MIC80,broth dilution,0.034 µM
O=C(Nc1cccc(Cn2ccnc2)c1)c1ccc([N+](=O)[O-])cc1,27 strains,Mean MIC,,200 µg/mL
CCc1n[nH]c(=O)n1N1C(=O)CCC1=O,ATCC16231,MIC,,>250 µg/mL
Cc1ccc2occ(/C=N/NC(=O)c3ccccc3O)c(=O)c2c1,PN-10,MIC,,250–400 µg/mL
CC1(C)CC(=O)c2cc(C3=CC(c4ccc(Br)cc4)=CC3c3nnc4c(n3)Nc3ccccc3N4)[nH]c2C1,ATCC 2091,MIC,,200 µg/mL
CC(C)=CCCCCCNC1NCCC2c3ccccc3CCN12,NFI0124,MIC80,,16 µg/mL
CCCCCCCCCCNCCSC(=S)NCc1ccccc1,,MIC,,1000 µg/mL
CC(C)C(=O)OC1CCN(CC(O)(Cn2cncn2)c2ccc(F)cc2F)CC1,Y0109,MIC80,broth dilution,0.153 µM
O=C(Cc1ccc([N+](=O)[O-])cc1)Nc1cc([N+](=O)[O-])ccc1O,,MIC,,25 µg/mL
CN1CCN(CCSC(=S)NCc2ccc(Cl)c(Cl)c2)CC1,,MIC,,100 µg/mL
CCOC1Oc2ccccc2C(=O)/C1=C\Nc1ccc(C(=O)O)c(O)c1,PN-10,MIC,,50 µg/mL
CCC(c1ccc(OC)cc1)C(c1ccc(OC)cc1)n1cnnc1,28 strains,MIC50,,256 µg/mL

Repeating the first 8 entries:

smiles,strain or isolate,measure,method,value
O[C@](Cn1cncn1)(Cn1cnc(/C=C/c2ccc(OCC(F)(F)C(F)F)cc2)n1)c1ccc(F)cc1F,Isolate 04-31,MIC,,0.25 µg/mL
O=c1[nH]nc(Cc2ccccc2)n1CCO,ATCC16231,MIC,,>250 µg/mL
CC(C)(C)C(=O)OC1CCN(CC(O)(Cn2cncn2)c2ccc(F)cc2F)CC1,Y0109,MIC80,broth dilution,0.148 µM
Clc1cc(Br)ccc1C=Nc1cccc(Cn2ccnc2)c1,27 strains,Mean MIC,,131 µg/mL
CC(C)(C)c1ccc(-c2nc3cc([N+](=O)[O-])ccc3o2)cc1,,MIC,,12.5 µg/mL
COc1ccc(C(Cc2ccc(Cl)cc2)n2cnnc2)cc1,28 strains,MIC50,,128 µg/mL
CCCCCCCCCCCCCC[C@@H](N)C(=O)N[C@H](C(=O)O)C1O[C@@H](n2ccc(=O)[nH]c2=O)[C@H](O)[C@@H]1O,124 NIK (nikkomycin-R),MIC,,>320 µg/mL
CN(C)CCSC(=S)NCc1c(Cl)cccc1Cl,,MIC,,40 µg/mL